Measurements reported in PubChem BioAssay AID1259414 (Drosophila RNAi Screening Center, 2018)
The deposit covers about 24,000 reagents; this is a random part of those that have a named target and a result. In the full data, about 1,210 (5%) are marked active. 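Inactive calls also include excluded dsRNAs with several or no targets, genes unexpressed in JW18, and well A1, regardless of score.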 Reagents against one gene are numbered here. A plus sign joins genes that one reagent is predicted to hit. No sequences are given here.

- Screen: 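Host factors increasing or decreasing Wolbachia levels in cultured fly cells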 (primary screen)
- Cells: Drosophila JW18 cells infected with Wolbachia
- Reagents: long dsRNA against Drosophila genes, 0.25 µg dsRNA per well of a 384-well plate
- Time to read-out: 5 days
- Challenge: cells persistently infected with Wolbachia before knock-down; no added drug
- Measured: 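Automated imaging of bacterial rRNA staining divided by host cell count, reported as plate-normalised robust z-score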
- Direction: Wolbachia per cell robust z: higher = more Wolbachia per host cell than the plate typical
- Hit rule: 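Hit when robust z is 1.5 or more, or -1.5 or less, in at least two of three replicates; excludes dsRNAs with several or no targets, genes not expressed in JW18 and well A1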

After knock-down of BomBc2 #1, the screen gave Wolbachia per cell robust z, rep 1 = -0.477; Wolbachia per cell robust z, rep 2 = -3.6; Wolbachia per cell robust z, rep 3 = 0.751; inactive. Against BomBc2 #2, the entry reads Wolbachia per cell robust z, rep 1 = 0.753; Wolbachia per cell robust z, rep 2 = -1.02; Wolbachia per cell robust z, rep 3 = 0.996; inactive. After knock-down of Dys #1, the record shows Wolbachia per cell robust z, rep 1 = -1.15; Wolbachia per cell robust z, rep 2 = -0.294; Wolbachia per cell robust z, rep 3 = -0.665; inactive. Against Dys #2, the entry reads Wolbachia per cell robust z, rep 1 = -4.78; Wolbachia per cell robust z, rep 2 = -3.65; Wolbachia per cell robust z, rep 3 = 1.06; active. Silencing of Dys #3 gave: Wolbachia per cell robust z, rep 1 = -1.4; Wolbachia per cell robust z, rep 2 = -4.56; Wolbachia per cell robust z, rep 3 = 1; inactive. For Dys #4, the values are Wolbachia per cell robust z, rep 1 = -1.06; Wolbachia per cell robust z, rep 2 = -3.88; Wolbachia per cell robust z, rep 3 = 0.344; inactive.

With knock-down of Dys #5, the record shows Wolbachia per cell robust z, rep 1 = 0.684; Wolbachia per cell robust z, rep 2 = -0.71; Wolbachia per cell robust z, rep 3 = 0.955; inactive. For Dys #6 the deposit lists Wolbachia per cell robust z, rep 1 = 0.373; Wolbachia per cell robust z, rep 2 = -0.531; Wolbachia per cell robust z, rep 3 = 0.686; inactive. Dys #7 scored Wolbachia per cell robust z, rep 1 = 0.695; Wolbachia per cell robust z, rep 2 = 0.3; Wolbachia per cell robust z, rep 3 = 1.53; inactive. Silencing of Dys #8 resulted in: Wolbachia per cell robust z, rep 1 = -0.0207; Wolbachia per cell robust z, rep 2 = 0.132; Wolbachia per cell robust z, rep 3 = 0.124; inactive. Against CG31975 + ovm #1 the deposit lists Wolbachia per cell robust z, rep 1 = 0.207; Wolbachia per cell robust z, rep 2 = 0.243; Wolbachia per cell robust z, rep 3 = -0.207; inactive. CG31975 + ovm #2 scored Wolbachia per cell robust z, rep 1 = 0.162; Wolbachia per cell robust z, rep 2 = -0.885; Wolbachia per cell robust z, rep 3 = -0.167; inactive.

Against CG14135, the entry reads Wolbachia per cell robust z, rep 1 = 0.198; Wolbachia per cell robust z, rep 2 = 0.223; Wolbachia per cell robust z, rep 3 = 0.997; inactive. Silencing of cv-2 #1 resulted in: Wolbachia per cell robust z, rep 1 = -2.02; Wolbachia per cell robust z, rep 2 = -0.689; Wolbachia per cell robust z, rep 3 = 0.879; inactive. Depletion of cv-2 #2 resulted in: Wolbachia per cell robust z, rep 1 = -1.01; Wolbachia per cell robust z, rep 2 = 0.0372; Wolbachia per cell robust z, rep 3 = -0.675; inactive. For BomS3 #1 the deposit lists Wolbachia per cell robust z, rep 1 = -0.622; Wolbachia per cell robust z, rep 2 = 0.678; Wolbachia per cell robust z, rep 3 = -0.182; inactive. Against BomS3 #2, the entry reads Wolbachia per cell robust z, rep 1 = -0.654; Wolbachia per cell robust z, rep 2 = 0.377; Wolbachia per cell robust z, rep 3 = 1.05; inactive. Against Rbp6 #1, the values are Wolbachia per cell robust z, rep 1 = 0.594; Wolbachia per cell robust z, rep 2 = -0.439; Wolbachia per cell robust z, rep 3 = 1.21; inactive.

Knock-down of Rbp6 #2 gave: Wolbachia per cell robust z, rep 1 = -1.86; Wolbachia per cell robust z, rep 2 = -6.81; Wolbachia per cell robust z, rep 3 = -3.29; inactive. Knock-down of Rbp6 #3 came out at: Wolbachia per cell robust z, rep 1 = -4.36; Wolbachia per cell robust z, rep 2 = -0.024; Wolbachia per cell robust z, rep 3 = -0.234; inactive. Knock-down of Rbp6 #4 gave: Wolbachia per cell robust z, rep 1 = -3.2; Wolbachia per cell robust z, rep 2 = 0.315; Wolbachia per cell robust z, rep 3 = 0.202; inactive. Knock-down of apolpp #1 came out at: Wolbachia per cell robust z, rep 1 = -0.496; Wolbachia per cell robust z, rep 2 = -8.41; Wolbachia per cell robust z, rep 3 = -0.0601; inactive. Knock-down of apolpp #2 gave: Wolbachia per cell robust z, rep 1 = 0.69; Wolbachia per cell robust z, rep 2 = 0.0872; Wolbachia per cell robust z, rep 3 = -0.499; inactive. After knock-down of FoxP #1, the screen gave Wolbachia per cell robust z, rep 1 = -4.98; Wolbachia per cell robust z, rep 2 = -0.191; Wolbachia per cell robust z, rep 3 = -2.83; inactive.

FoxP #2 gave Wolbachia per cell robust z, rep 1 = -0.392; Wolbachia per cell robust z, rep 2 = -0.269; Wolbachia per cell robust z, rep 3 = 0.322; inactive. Knock-down of FoxP #3 gave: Wolbachia per cell robust z, rep 1 = -1.09; Wolbachia per cell robust z, rep 2 = -0.102; Wolbachia per cell robust z, rep 3 = 0.975; inactive.

Reagents above marked active (1):
Dys #2: Wolbachia per cell robust z, rep 1 = -4.78; Wolbachia per cell robust z, rep 2 = -3.65; Wolbachia per cell robust z, rep 3 = 1.06; Outcome = active
